Values from PubChem BioAssay AID624099 (ICCB-Longwood, 2012).
Purpose: 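Human genes that papillomavirus E2 requires to repress the HPV18 LCR promoter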 (primary screen). System: human C33A cervical carcinoma cells (HPV-negative) stably expressing BPV1 E2 and an HPV18 LCR luciferase reporter. Knock-down reagent: siRNA pool against human genes, 40 nM. Duration: 72 h. Measurement: 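HPV18 LCR reporter light per well, converted to plate-wise z-scores that exclude control wells, and averaged over triplicate plates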. Reading the numbers: mean z-score and z-score: higher = stronger reporter signal, weaker E2 silencing. Call rule: 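Mean z ≥ 2 together with z ≥ 2 in two or more of the three replicates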.
This is one part, drawn at random, of about 21,000 deposited reagents. Of all reagents, 497 (2.4%) are marked active. 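Higher z means weaker E2 silencing; only reporter increases were scored, and knock-downs that hurt cell survival may mask genuine repressor factors.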 Reagents against one gene are numbered here.

TYW1 → mean z-score: -1.11; z-score, replicate A: -1.41; z-score, replicate B: -0.96; z-score, replicate C: -0.97; activity call: inactive
PTPRU → mean z-score: -0.16; z-score, replicate A: 0.02; z-score, replicate B: -0.27; z-score, replicate C: -0.22; activity call: inactive
PELI1 → mean z-score: 0.55; z-score, replicate A: 0.39; z-score, replicate B: 0.66; z-score, replicate C: 0.61; activity call: inactive
BEGAIN → mean z-score: -2.01; z-score, replicate A: -2.08; z-score, replicate B: -1.83; z-score, replicate C: -2.13; activity call: inactive
METTL14 → mean z-score: -1.22; z-score, replicate A: -1.1; z-score, replicate B: -1.49; z-score, replicate C: -1.07; activity call: inactive
HBG1 → mean z-score: -1.56; z-score, replicate A: -1.65; z-score, replicate B: -1.63; z-score, replicate C: -1.41; activity call: inactive
PLA2G5 → mean z-score: -0.68; z-score, replicate A: -0.67; z-score, replicate B: -0.52; z-score, replicate C: -0.85; activity call: inactive
KIF2C → mean z-score: 1.01; z-score, replicate A: 0.93; z-score, replicate B: 1.01; z-score, replicate C: 1.08; activity call: inactive
ZC3H12B → mean z-score: 1.13; z-score, replicate A: 1.2; z-score, replicate B: 1.06; z-score, replicate C: 1.12; activity call: inactive
DNAJB6 → mean z-score: 0.92; z-score, replicate A: 0.75; z-score, replicate B: 1.03; z-score, replicate C: 0.99; activity call: inactive
LINC02716 → mean z-score: 0.58; z-score, replicate A: 0.23; z-score, replicate B: 0.66; z-score, replicate C: 0.84; activity call: inactive
RPS15AP17 → mean z-score: 0.36; z-score, replicate A: 0.69; z-score, replicate B: -0.24; z-score, replicate C: 0.61; activity call: inactive
ZC3H11D → mean z-score: 0.76; z-score, replicate A: 0.45; z-score, replicate B: 1.19; z-score, replicate C: 0.65; activity call: inactive
NEXN-AS1 → mean z-score: 0.46; z-score, replicate A: 0.36; z-score, replicate B: 0.61; z-score, replicate C: 0.42; activity call: inactive
LOC390777 (retired record) → mean z-score: 0.2; z-score, replicate A: 0.05; z-score, replicate B: 0.28; z-score, replicate C: 0.28; activity call: inactive
DVL2 → mean z-score: 2.49; z-score, replicate A: 2.47; z-score, replicate B: 2.61; z-score, replicate C: 2.4; activity call: active
TESC → mean z-score: -0.49; z-score, replicate A: -0.39; z-score, replicate B: -0.11; z-score, replicate C: -0.97; activity call: inactive
CEP290 #1 → mean z-score: 1.25; z-score, replicate A: 1.44; z-score, replicate B: 1.16; z-score, replicate C: 1.15; activity call: inactive
CEP290 #2 → mean z-score: -0.09; z-score, replicate A: -0.22; z-score, replicate B: 0; z-score, replicate C: -0.06; activity call: inactive
RPL4P5 → mean z-score: -3.55; z-score, replicate A: -3.6; z-score, replicate B: -4.1; z-score, replicate C: -2.95; activity call: inactive
TFCP2 → mean z-score: -0.09; z-score, replicate A: -0.21; z-score, replicate B: -0.19; z-score, replicate C: 0.12; activity call: inactive
LGR6 → mean z-score: -0.33; z-score, replicate A: -0.06; z-score, replicate B: -0.48; z-score, replicate C: -0.46; activity call: inactive
LINC00879 → mean z-score: 0.33; z-score, replicate A: 0.29; z-score, replicate B: 0.07; z-score, replicate C: 0.62; activity call: inactive
LOC342669 (retired record) → mean z-score: -0.16; z-score, replicate A: -0.39; z-score, replicate B: 0.03; z-score, replicate C: -0.12; activity call: inactive
HASPIN → mean z-score: -0.08; z-score, replicate A: -0.14; z-score, replicate B: -0.37; z-score, replicate C: 0.28; activity call: inactive
CX3CL1 → mean z-score: 0.61; z-score, replicate A: 0.33; z-score, replicate B: 0.63; z-score, replicate C: 0.88; activity call: inactive
AADACL2 → mean z-score: -1.08; z-score, replicate A: -1.04; z-score, replicate B: -1.37; z-score, replicate C: -0.83; activity call: inactive
